{"source": "PubChem BioAssay AID624099 (ICCB-Longwood, 2012)", "purpose": "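Human genes that papillomavirus E2 requires to repress the HPV18 LCR promoter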 (primary screen)", "cell system": "human C33A cervical carcinoma cells (HPV-negative) stably expressing BPV1 E2 and an HPV18 LCR luciferase reporter", "reagent": "siRNA pool against human genes, 40 nM", "timing": "72 h", "read-out": "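Per-well luciferase luminescence, z-scored on each plate against the plate mean and SD with control wells left out, then averaged across three replicate plates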", "reading the numbers": "mean z-score and z-score: higher = stronger reporter signal, weaker E2 silencing", "hit rule": "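Mean z ≥ 2 together with z ≥ 2 in two or more of the three replicates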", "note": "In all, the deposit lists about 21,000 reagents; shown is an unselected part. Of all reagents, 497 (2.4%) are marked active. 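Higher z means weaker E2 silencing; only reporter increases were scored, and knock-downs that hurt cell survival may mask genuine repressor factors.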 Unmarked entries are inactive. The numbers tell different reagents against one gene apart."}
{"gene":"MEGF8 (multiple EGF like domains 8)","reagent":1,"mean z-score":-0.09,"z-score, replicate A":-0.12,"z-score, replicate B":-0.11,"z-score, replicate C":-0.04}
{"gene":"MEGF8 (multiple EGF like domains 8)","reagent":2,"mean z-score":1.22,"z-score, replicate A":0.95,"z-score, replicate B":1.62,"z-score, replicate C":1.08}
{"gene":"ZNF490 (zinc finger protein 490)","reagent":1,"mean z-score":0.62,"z-score, replicate A":0.31,"z-score, replicate B":0.62,"z-score, replicate C":0.93}
{"gene":"ZNF628 (zinc finger protein 628)","reagent":1,"mean z-score":1,"z-score, replicate A":0.43,"z-score, replicate B":1.1,"z-score, replicate C":1.47}
{"gene":"CLCNKB (chloride voltage-gated channel Kb)","reagent":1,"mean z-score":1.11,"z-score, replicate A":0.87,"z-score, replicate B":1.1,"z-score, replicate C":1.37}
{"gene":"PALM (paralemmin)","reagent":1,"mean z-score":-1,"z-score, replicate A":-1.08,"z-score, replicate B":-1.12,"z-score, replicate C":-0.79}
{"gene":"CTF1 (cardiotrophin 1)","reagent":1,"mean z-score":-0.49,"z-score, replicate A":-0.8,"z-score, replicate B":-0.17,"z-score, replicate C":-0.49}

2 successive reagents already listed, for reference:
{"gene":"ZNF628 (zinc finger protein 628)","reagent":1,"mean z-score":1,"z-score, replicate A":0.43,"z-score, replicate B":1.1,"z-score, replicate C":1.47}
{"gene":"CLCNKB (chloride voltage-gated channel Kb)","reagent":1,"mean z-score":1.11,"z-score, replicate A":0.87,"z-score, replicate B":1.1,"z-score, replicate C":1.37}

Next records:
{"gene":"UPF1 (UPF1 RNA helicase and ATPase)","reagent":1,"mean z-score":0.55,"z-score, replicate A":0.48,"z-score, replicate B":0.54,"z-score, replicate C":0.62}
{"gene":"ABCB5 (ATP binding cassette subfamily B member 5)","reagent":1,"mean z-score":0.31,"z-score, replicate A":0.64,"z-score, replicate B":0.21,"z-score, replicate C":0.09}
{"gene":"LINC00470 (long independently transcribed non-coding RNA 470)","reagent":1,"mean z-score":-0.44,"z-score, replicate A":-0.55,"z-score, replicate B":-0.17,"z-score, replicate C":-0.59}
{"gene":"GRHPR (glyoxylate and hydroxypyruvate reductase)","reagent":1,"mean z-score":-0.82,"z-score, replicate A":-1.25,"z-score, replicate B":-0.55,"z-score, replicate C":-0.66}
{"gene":"SEC23A (SEC23 homolog A, COPII component)","reagent":1,"mean z-score":-0.39,"z-score, replicate A":-0.33,"z-score, replicate B":-0.54,"z-score, replicate C":-0.28}
{"gene":"TLN1 (talin 1)","reagent":1,"mean z-score":0.49,"z-score, replicate A":0.75,"z-score, replicate B":0.6,"z-score, replicate C":0.12}
{"gene":"LOC388140 (retired record)","reagent":1,"mean z-score":-0.93,"z-score, replicate A":-0.97,"z-score, replicate B":-1.13,"z-score, replicate C":-0.69}
{"gene":"KLK15 (kallikrein related peptidase 15)","reagent":1,"mean z-score":0.54,"z-score, replicate A":0.24,"z-score, replicate B":0.94,"z-score, replicate C":0.45}
{"gene":"CLCN1 (chloride voltage-gated channel 1)","reagent":1,"mean z-score":-0.35,"z-score, replicate A":-0.49,"z-score, replicate B":-0.23,"z-score, replicate C":-0.34}
{"gene":"LINC00336 (long independently transcribed non-coding RNA 336)","reagent":1,"mean z-score":-0.12,"z-score, replicate A":-0.08,"z-score, replicate B":0.05,"z-score, replicate C":-0.33}
{"gene":"USP6NL (USP6 N-terminal like)","reagent":1,"mean z-score":0.59,"z-score, replicate A":0.48,"z-score, replicate B":0.84,"z-score, replicate C":0.45}
{"gene":"LOC387883 (retired record)","reagent":1,"mean z-score":0,"z-score, replicate A":0.02,"z-score, replicate B":0,"z-score, replicate C":-0.03}
{"gene":"C1orf174 (chromosome 1 open reading frame 174)","reagent":1,"mean z-score":0.47,"z-score, replicate A":0.2,"z-score, replicate B":0.78,"z-score, replicate C":0.45}
{"gene":"CITED1 (Cbp/p300 interacting transactivator with ED-rich tail 1)","reagent":1,"mean z-score":-0.09,"z-score, replicate A":-0.38,"z-score, replicate B":-0.05,"z-score, replicate C":0.14}
